Test results as given in PubChem BioAssay AID1637 (Sanford-Burnham Center for Chemical Genomics, 2009).
The list shows a part of the results, in another mix than the full data. Active and inactive are the calls of the source. How the calls were made is not given here.

Assay: NMR binding screen, influenza A RNA promoter, Kd (AID 1637)
Conditions: NMR binding to influenza A RNA promoter

| SMILES | Kd |
| --- | --- |
| OC1CN2CCC1CC2 (configuration not stated) | inactive: > 4 mM |
| CP(N)(=O)Oc1ccc(Cl)cc1 (configuration not stated) | inactive: > 4 mM |
